Experimental data reported in patent US20190300927A1, “METABOLIC ASSAY FOR BACTERIAL GROWTH AND GRAM TYPING” (SELUX DIAGNOSTICS, INC., priority 2018, published 2019).

Tested on: Pseudomonas aeruginosa
Assay: Metabolic indicator detection of P. aeruginosa growth (FIG. 1, AST protocol)
Assay type: cell-based
Details: growth detection in <5 hours

Substance: iodonitrotetrazolium
- metabolism of the indicator by P. aeruginosa / detection of P. aeruginosa growth: not capable of detecting P. aeruginosa growth
